A mixed list of measured activities; the numbers were collected in NIAID ChemDB.

Common to all: growth or infection tests; organism: HIV-1

Rows are shuffled and stem from different studies.

smiles | mutations | cell line | method | strain or isolate | endpoint | result
Cc1ccc(-c2cc(-c3ccccc3)n(-c3ccccc3C)n2)c(=O)[nH]1 | - | TZM-bl | luminescence | UG070 | EC50 | >147 µM
Cc1cc(C)nc(NS(=O)(=O)c2ccc(N=C3C(=O)N(CN4CCN(c5cc6c(cc5F)c(=O)c(C(=O)O)cn6C5CC5)CC4)c4ccc(F)cc43)cc2)n1 | - | MT-4 | cytopathic effect / MTT | IIIB | EC50 | 30.12 µM
CCCCCCC(C)[C@H]1CCC2C3CC[C@H]4C[C@@H](CCC=C(c5cc(Cl)c(O)c(C(=O)O)c5)c5cc(Cl)c(O)c(C(=O)O)c5)CC[C@]4(C)C3CC[C@@]21C | - | MT-4 | cytopathic effect / MTT | RF | EC50 | 5.1 µM
COC1CCN(CCNc2cc(S(=O)(=O)N(CC(C)C)C[C@@H](O)[C@H](Cc3ccccc3)NC(=O)O[C@H]3CO[C@H]4OCC[C@H]43)ccc2N)CC1 | - | MT-4 | GFP | IIIB WT | EC50 | 0.0603 µM
CCO[C@]12CS(=O)(=O)O[C@@]13C(CN2)O[C@@H](n1cc(C)c(=O)n(C)c1=O)[C@@H]3O[Si](C)(C)C(C)(C)C | - | MT-4 | - | IIIB | EC50 | 3.6 µM
C=C(C)[C@@H]1CC[C@]2(CO)CC[C@]3(C)[C@H](CC[C@@H]4[C@@]5(C)CC=C(c6ccc(C(=O)O)c(C(=O)O)c6)C(C)(C)[C@@H]5CC[C@]43C)[C@@H]12 | Gag P373S | MT-2 | luciferase | NL4-3 | EC50 | 1 µM
Cc1cc(CNC(=O)c2nc3n(c(=O)c2O)[C@@H](C)COC[C@@H]3N(C)C(=O)C(=O)N(C)C)ccc1F | Y143R | HeLa P4-2 | single cycle | - | EC50 | 0.002 µM
Cc1cn([C@@H]2O[C@@H]3CN[C@@]4(OCCOc5ccccc5)CS(=O)(=O)O[C@@]34[C@H]2O)c(=O)[nH]c1=O | - | MT-4 | - | IIIB | EC50 | >250 µM
CCc1ccccc1-n1nc(-c2ccc(C)[nH]c2=O)cc1-c1ccccc1 | - | TZM-bl | luminescence | VB59 | EC50 | >28.17 µM
C[C@]12CCC3C(CC[C@H]4C[C@@H](CC=C(c5cc(Cl)c(O)c(C(=O)O)c5)c5cc(Cl)c(O)c(C(=O)O)c5)CC[C@]34C)C1CC[C@@H]2CC=C(c1cc(Cl)c(O)c(C(=O)O)c1)c1cc(Cl)c(O)c(C(=O)O)c1 | - | CEM + CEM-SS | cytopathic effect / MTT | IIIB | EC50 | 14 µM
C=C(C)[C@@H]1CC[C@]2(CO)CC[C@]3(C)[C@H](CC[C@@H]4[C@@]5(C)CC=C(c6ccc(C(=O)O)cc6F)C(C)(C)[C@@H]5CC[C@]43C)[C@@H]12 | Gag P373S | MT-2 | luciferase | NL4-3 | EC50 | 1 µM
CC(C)CN(C[C@@H](O)[C@H](Cc1ccccc1)NC(=O)O[C@H]1CO[C@H]2OCC[C@H]21)S(=O)(=O)c1ccc(N)c(NCCc2cnc[nH]2)c1 | - | MT-4 | GFP | IIIB WT | EC50 | 0.851 µM
COC(=O)c1cc(NC(=O)Nc2cccc3c(C(=O)C(=O)N4CCC(=C(C#N)c5ccccc5)CC4)c[nH]c23)cc(C(=O)OC)c1 | - | HeLa | luciferase / reporter gene | - | EC50 | <1 µM
Cc1cn([C@@H]2O[C@@H]3CN[C@@]4(O)CS(=O)(=O)O[C@@]34[C@H]2O[Si](C)(C)C(C)(C)C)c(=O)[nH]c1=O | - | MT-4 | - | IIIB | EC50 | >250 µM
Nc1nc(NC2CC2)c2ncn([C@H]3C=C[C@@H](CO)C3)c2n1 | K103N/Y188L | MT-2 | recombinant virus assay | Clinical isolate | EC50 | 0.1056 µM
Cc1ccc(-c2cc(-c3ccccc3)n(-c3ccccc3)n2)c(=O)[nH]1 | - | TZM-bl | luminescence | VB59 | EC50 | 16.12 µM
Cc1cc(C)nc(NS(=O)(=O)c2ccc(N=C3C(=O)N(CN4CCN(c5ccc([N+](=O)[O-])cc5)CC4)c4ccccc43)cc2)n1 | - | MT-4 | cytopathic effect / MTT | IIIB | EC50 | >42.62 µM
CC[C@H]1COC[C@H](N(C)C(=O)C(=O)N(C)C)c2nc(C(=O)NCc3ccc(F)cc3)c(O)c(=O)n21 | E92Q | HeLa P4-2 | single cycle | - | EC50 | 0.001 µM
CC(C)CN(C[C@@H](O)[C@H](Cc1ccccc1)NC(=O)O[C@H]1CO[C@H]2OCC[C@H]21)S(=O)(=O)c1ccc(N)c(NCc2ccc(F)cc2F)c1 | - | MT-4 | GFP | IIIB WT | EC50 | 0.00363 µM
Cc1ccc(-c2cc(-c3ccccc3)n(-c3ccc(Br)cc3)n2)c(=O)[nH]1 | - | TZM-bl | luminescence | VB59 | EC50 | 179 µM
C[C@H](Cn1cnc2c(N)ncnc21)OCP(=O)(O)O | K103N/Y188L | MT-2 | recombinant virus assay | Clinical isolate | EC50 | 0.0028 µM
O=C(CCCCCCCCCCC(=O)Nc1cc(S(=O)(=O)O)cc2cc(S(=O)(=O)O)cc(O)c12)Nc1cc(S(=O)(=O)O)cc2cc(S(=O)(=O)O)cc(O)c12 | - | MOLT-4/HIV-1(IIIB) + MOLT-4 | syncytia | IIIB | EC50 | 47.6 µM
CC(C)=CCOc1cc(NC(=S)c2ccsc2C)ccc1Cl | - | CEM + CEM-SS | p24 | RF | EC50 | 0.004 µM
CC(C)CN(C[C@@H](O)[C@H](Cc1ccccc1)NC(=O)O[C@H]1CO[C@H]2OCC[C@H]21)S(=O)(=O)c1ccc(N)c(N(C)C)c1 | - | MT-4 | GFP | IIIB WT | EC50 | 0.0182 µM
CN1C(=O)C(c2cc(Cl)c(O)c(Cl)c2)NC(=O)[C@@H]2NC(=O)C(c3cc(Cl)c(O)c(Cl)c3)NC(=O)[C@H](NC(=O)C(=O)c3cc(Cl)c(O)c(Cl)c3)Cc3c[nH]c4c(cccc34)-c3cc2cc(c3O)Oc2ccc(cc2)CC1C(=O)NC(C(=O)O)c1ccc(O)cc1 | - | MT-4 | cytopathic effect / MTT | IIIB | EC50 | 1.7 µM
COc1c(C)c2c(c(O)c1C/C=C(\C)CCC(=O)O)C(=O)OC2 | - | PBMC | p24 | IIIB | EC50 | 0.11 µM
CCn1cc(C(=O)O)c(=O)c2cc(F)c(N3CCN(CN4C(=O)C(=Nc5ccc(S(=O)(=O)Nc6nc(C)cc(C)n6)cc5)c5cc(F)ccc54)C(C)C3)c(F)c21 | - | MT-4 | cytopathic effect / MTT | IIIB | EC50 | 14.8 µM
Cc1cn([C@@H]2O[C@@H]3CN[C@@]4(OCC(C)(C)C)CS(=O)(=O)O[C@@]34[C@H]2O[Si](C)(C)C(C)(C)C)c(=O)[nH]c1=O | - | CEM | - | IIIB | EC50 | <10 µM
CN(C[C@@H](CCN1CCC(CCCc2ccccc2)CC1)c1cccc(Cl)c1)S(=O)(=O)c1ccccc1 | - | PBMC | p24 | YU2 | EC95 | 50 µM
COc1ccc(N2CCN(CN3C(=O)C(=Nc4ccc(S(=O)(=O)Nc5nc(C)cc(C)n5)cc4)c4ccccc43)CC2)cc1 | - | CEM | cytopathic effect / XTT | IIIB | EC50 | >34.8 µM
Cc1cn([C@@H]2O[C@@H]3CN[C@@]4(C#N)CS(=O)(=O)O[C@@]34[C@H]2O[Si](C)(C)C(C)(C)C)c(=O)[nH]c1=O | - | CEM | - | IIIB | EC50 | >50 µM
CC(=O)Nc1cc(S(=O)(=O)O)cc2cc(S(=O)(=O)O)cc(O)c12 | - | MT-4 | MTT | HE | EC50 | 9.2 µM
C=C(C)[C@@H]1CC[C@]2(CO)CC[C@]3(C)[C@H](CC[C@@H]4[C@@]5(C)CC=C(c6ccc(C(=O)O)c(C(F)(F)F)c6)C(C)(C)[C@@H]5CC[C@]43C)[C@@H]12 | Gag P373S | MT-2 | luciferase | NL4-3 | EC50 | 1 µM
C[C@@H]1CN(C(=O)c2ccccc2)CCN1C(=O)C(=O)c1c[nH]c2c(NC(=O)NCCOCCOCCN)cccc12 | - | HeLa | luciferase / reporter gene | - | EC50 | <1 µM
COc1cccc(-n2nc(-c3ccc(C)[nH]c3=O)cc2-c2ccccc2)c1 | - | TZM-bl | luminescence | UG070 | EC50 | >280 µM
C=C(C)[C@@H]1CC[C@]2(CO)CC[C@]3(C)[C@H](CC[C@@H]4[C@@]5(C)CC=C(c6cc(C(=O)O)no6)C(C)(C)[C@@H]5CC[C@]43C)[C@@H]12 | Gag P373S | MT-2 | luciferase | NL4-3 | EC50 | 1 µM
CC[C@H]1COC[C@@H](N(C)C(=O)C(=O)N(C)C)c2nc(C(=O)NCc3ccc(F)cc3)c(O)c(=O)n21 | G140S/Q148H | HeLa P4-2 | single cycle | - | EC50 | 0.004 µM
Cc1cn([C@@H]2O[C@@H]3CN[C@H]4CS(=O)(=O)O[C@]43[C@H]2O[Si](C)(C)C(C)(C)C)c(=O)[nH]c1=O | - | CEM | - | IIIB | EC50 | 30 µM
CC[C@@H]1COC[C@@H](N(C)C(=O)C(=O)N(C)C)c2nc(C(=O)NCc3ccc(F)cc3)c(O)c(=O)n21 | G140S/Q148H | HeLa P4-2 | single cycle | - | EC50 | 0.018 µM
Cc1cn([C@H]2C[C@H](N=[N+]=[N-])[C@@H](CO)O2)c(=O)[nH]c1=O | - | PBMC | p24 / ELISA | KM018 | EC50 | 0.0377 µg/mL
Nc1c(S(=O)(=O)O)cc2cc(S(=O)(=O)O)cc(O)c2c1O | - | MT-4 | cytopathic effect / MTT | HE | EC50 | 9.2 µM
N#CC(=C1CCN(C(=O)C(=O)c2c[nH]c3c(N4C(=O)N[C@@H](CCC(=O)O)C4=O)cccc23)CC1)c1ccccc1 | - | HeLa | luciferase / reporter gene | - | EC50 | <1 µM
COc1c(Cl)cc(C(=CCCCCN(C(=O)C=C(c2cc(Cl)c(OC)c(C(=O)O)c2)c2cc(Cl)c(OC)c(C(=O)O)c2)[C@H]2CC[C@]3(C)C4CC[C@@]5(C)C(CC[C@@H]5C(C)CCCC(C)C)C4CC[C@H]3C2)c2cc(Cl)c(OC)c(C(=O)O)c2)cc1C(=O)O | - | MT-4 | cytopathic effect / MTT | IIIB | EC50 | 9.9 µM
C[C@@H]1CN(C(=O)c2ccccc2)CCN1C(=O)C(=O)c1c[nH]c2c(NC(=O)c3ccc(B(O)O)cc3)cccc12 | - | HeLa | luciferase / reporter gene | - | EC50 | <1 µM
COc1ccc(-n2nc(-c3ccc(C)[nH]c3=O)cc2-c2ccccc2)cc1 | - | TZM-bl | luminescence | UG070 | EC50 | 99.97 µM
COc1c(Cl)cc(C(=CCNC(=O)C[C@H]2CC[C@]3(C)C4CC[C@@]5(C)C(CC[C@@H]5CC(=O)NCC=C(c5cc(Cl)c(OC)c(C(=O)O)c5)c5cc(Cl)c(OC)c(C(=O)O)c5)C4CC[C@H]3C2)c2cc(Cl)c(OC)c(C(=O)O)c2)cc1C(=O)O | - | CEM + CEM-SS | cytopathic effect / MTT | RF | EC50 | 35 µM
Cc1cn([C@@H]2O[C@@H]3CN[C@@]4(OCC(C)(C)C)CS(=O)(=O)O[C@@]34[C@H]2O)c(=O)[nH]c1=O | - | MT-4 | - | IIIB | EC50 | 24.2 µM

4 of the rows above, restated:

smiles | mutations | cell line | method | strain or isolate | endpoint | result
Nc1nc(NC2CC2)c2ncn([C@H]3C=C[C@@H](CO)C3)c2n1 | K103N/Y188L | MT-2 | recombinant virus assay | Clinical isolate | EC50 | 0.1056 µM
CCO[C@]12CS(=O)(=O)O[C@@]13C(CN2)O[C@@H](n1cc(C)c(=O)n(C)c1=O)[C@@H]3O[Si](C)(C)C(C)(C)C | - | MT-4 | - | IIIB | EC50 | 3.6 µM
Nc1c(S(=O)(=O)O)cc2cc(S(=O)(=O)O)cc(O)c2c1O | - | MT-4 | cytopathic effect / MTT | HE | EC50 | 9.2 µM
Cc1cc(C)nc(NS(=O)(=O)c2ccc(N=C3C(=O)N(CN4CCN(c5ccc([N+](=O)[O-])cc5)CC4)c4ccccc43)cc2)n1 | - | MT-4 | cytopathic effect / MTT | IIIB | EC50 | >42.62 µM

ECn is the concentration giving n% inhibition of infection, replication or growth. An empty or dashed field is not shown.